Sequence variants of PSTVd loop 15 after infection

Source: Wu et al. 2024 (doi:10.1371/journal.ppat.1012142), supplementary data.

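Three N. benthamiana plants were inoculated with the whole mutant pool. Samples came from the inoculated region at 5 days, the leaf margin at 10 and upper systemic leaves at 12.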

PSTVd intermediate strain, loop 15: wild type GGAAACCGCUACUAC, pool pattern GGAAACCGNNNNNNC; upper and lower strand joined, each 5' to 3', the first 7 letters being the upper strand, closing pairs included.

Values are reads per thousand in the sample; higher means more abundant, 0 means not found. Each value is the mean of three plants. "Pool" is the share in the plasmid pool used as inoculum, on the same scale. The inoculated region was read from the minus strand, the other sites from the plus strand. IR is the inoculated region, LM the leaf margin, Sys the systemic leaves. Samples held 43,870 to 66,106 reads, so the smallest values rest on one or two reads. The authors trace changes outside the varied positions to PCR and sequencing errors or to mutation in the plant; presence does not show that a variant is infectious alone. Wild type was 33.9 per thousand in the pool and the most common sequence in every sample (inoculated region 202, 200, 159; leaf margin 724, 746, 710; systemic leaves 856, 883, 880).

For GGAAACCGGUGCGGC (pool 0.288) the result was IR 0.102; LM 0; Sys 0.
For GGAAACCGCGGCAUC (pool 0.272) the result was IR 0.107; LM 0; Sys 0.
For GGAAACCGCGUCCAC (pool 0.272) the result was IR 0.112; LM 0.0200; Sys 0.
For GGAAACCGAAAGGCC (pool 0.112) the result was IR 0.0785; LM 0.00539; Sys 0.
For GGAAACCGGUGCCUC (pool 0.304) the result was IR 0.0695; LM 0.00668; Sys 0.
For GGAAACCGGACGUGC (pool 0.144) the result was IR 0.223; LM 0.00668; Sys 0.
For GGAAACCGGUAAAAC (pool 0.176) the result was IR 0.317; LM 0.150; Sys 0.0540.
For GGAAACCGCCCGAGC (pool 0.192) the result was IR 0.0877; LM 0.0256; Sys 0.
For GGAAACCGAGCCGUC (pool 0.304) the result was IR 0.101; LM 0.0262; Sys 0.
For GGAAACCGGGUCCGC (pool 0.304) the result was IR 0.0837; LM 0.0200; Sys 0.
For GGAAACCGUGAAGUC (pool 0.368) the result was IR 0.135; LM 0.00539; Sys 0.
For GGAAACCGCAGCCGC (pool 0.224) the result was IR 0.350; LM 0.0469; Sys 0.0107.
For GGAAACCGGGUGCCC (pool 0.224) the result was IR 0.0823; LM 0.00668; Sys 0.
For GGAAACCGCUUGCCC (pool 0.272) the result was IR 0.0687; LM 0; Sys 0.00537.
For GGAAACCGAAGCAUC (pool 0.352) the result was IR 0.253; LM 0.00742; Sys 0.
For GGAAACCGCCCCGCC (pool 0.304) the result was IR 0.101; LM 0.00539; Sys 0.
For GGAAACCGGCUCUGC (pool 0.256) the result was IR 0.104; LM 0.00668; Sys 0.
For GGAAACCGCUCACCC (pool 0.256) the result was IR 0.109; LM 0.0128; Sys 0.00537.
For GGAAACCGGAACGUC (pool 0.208) the result was IR 0.0902; LM 0; Sys 0.
For GGAAACCGGCGGUUC (pool 0.288) the result was IR 0.341; LM 0.0962; Sys 0.0666.
For GGAAACCGGACUGUC (pool 0.336) the result was IR 0.0841; LM 0.0195; Sys 0.00760.
For GGAAACCGAUCGGCC (pool 0.176) the result was IR 0.121; LM 0.00668; Sys 0.0107.
For GGAAACCGCGUGUCC (pool 0.208) the result was IR 0.0517; LM 0; Sys 0.
For GGAAACCGGCCCAAC (pool 0.256) the result was IR 0.0848; LM 0.0249; Sys 0.
For GGAAACCGUCGGGUC (pool 0.160) the result was IR 0.0667; LM 0.0187; Sys 0.
For GGAAACCGUAAACUC (pool 0.160) the result was IR 0.117; LM 0.0121; Sys 0.00537.
For GGAAACCGGGAAAGC (pool 0.144) the result was IR 0.0801; LM 0; Sys 0.

The last 2 entries again:

sequence	pool	IR	LM	Sys
GGAAACCGUAAACUC	0.160	0.117	0.0121	0.00537
GGAAACCGGGAAAGC	0.144	0.0801	0	0